Measured values: publication PMC10046907 (Current Issues in Molecular Biology, 2023)

Molecular target: neuraminidase from A/Chicken/Korea/MS96/96 (H9N2) (Influenza A virus (A/Chicken/Korea/MS96/96(H9N2)), UniProt Q9J458)
Experiment: Chemiluminescent neuraminidase inhibition (NAI) assay, H9N2
Format: biochemical, influenza A viruses
Details: read-out: Neuraminiase IC50

## CCOC(=O)C1=C[C@@H](OC(CC)CC)[C@H](NC(C)=O)[C@@H](N)C1 [Olseltamivir, oseltamivir, reference compound]
  IC50: 5 nM
